Results taken from publication PMC5333631 (Scientific Reports, 2017).

Molecular target: BoNT/A2-HC (6xHis-TrxA removed with thrombin) (UniProt Q45894 871-1296)

B1: luminal domain (LD) of human SV2C (domain or fragment, UniProt Q496J9 456-574, looked up)
chain: DVIKPLQSDEYALLTRNVERDKYANFTINFTMENQIHTGMEYDNGRFIGVKFKSVTFKDSVFKSCTFEDVTSVNTYFKNCTFIDTVFDNTDFEPYKFIDSEFKNCSFFHNKTGCQITFD
notes: also called SV2C-LD; untagged SV2C-LD; not shown: 6xHis, N-terminal, cleaved
binding result: binds
